Measured values from several laboratories, pooled; numbers as filed in NIAID ChemDB.

Shared fields: growth or infection tests; species: Candida krusei

Lines come from different laboratories, so protocols vary.

compound | strain or isolate | method | measure | dose | value
c1ccc(C(c2ccccc2)n2ccnc2)cc1 |  | broth dilution | MFC |  | 2 µg/mL
CC(C)(O)c1cn(-c2ccc([N+](=O)[O-])cc2)nn1 | URM 934 | broth dilution | inhibition | 2048 µg/mL | 0%
CCC(C)CC(C)CCCCCCCCC(=O)N[C@H]1C[C@@H](O)[C@H](NCCN)NC(=O)[C@@H]2[C@@H](O)CCN2C(=O)[C@H]([C@H](O)CCN)NC(=O)[C@H]([C@H](O)[C@@H](O)c2ccc(O)cc2)NC(=O)[C@@H]2C[C@@H](O)CN2C(=O)[C@H]([C@@H](C)O)NC1=O | ATCC 4363 | broth dilution | MIC50 |  | 0.25 µg/mL
C[n+]1ccn(COCCCCCOCn2cc[n+](C)c2)c1 | ATCC 6258 | agar diffusion | MIC100 |  | 109 µM
CC(C)(O)c1cn(-c2ccc3ccccc3c2)nn1 | URM 4263 | broth dilution | inhibition | 2048 µg/mL | 0%
Clc1ccc(C(c2ccccc2)n2cnc3ccccc32)cc1 |  | broth dilution | MFC |  | >256 µg/mL
Cc1ccc(-n2cc(C(C)(C)O)nn2)cc1C | URM 4802 | broth dilution | inhibition | 2048 µg/mL | 0%
Clc1ccc(C(c2ccccc2)n2cncn2)cc1 |  | broth dilution | MFC |  | 256 µg/mL
CCCCCCCCCCCn1cc[n+](COCCOC[n+]2ccn(CCCCCCCCCCC)c2)c1 | ATCC 6258 | agar diffusion | MIC100 |  | 2 µM
C=CCc1ccc(OC)c(OC)c1 | 337 | turbidity | MIC90 |  | 345 µg/mL
CCCCCCCCCCCn1cc[n+](COCCCOC[n+]2ccn(CCCCCCCCCCC)c2)c1 | ATCC 6258 | agar diffusion | MIC100 |  | 8 µM
O=C(c1ccccc1)C(c1ccccc1)n1ccnc1 |  | agar | MIC90 |  | >256 µg/mL
CCCCCCCCCCCCCCn1cc[n+](COCCOC[n+]2ccn(CCCCCCCCCCCCCC)c2)c1 | ATCC 6258 | agar diffusion | MIC100 |  | 2 µM
c1ccc(C(c2ccccc2)n2cncn2)cc1 |  | broth dilution | MFC |  | >256 µg/mL
CCCCn1cc[n+](COCCCOC[n+]2ccn(CCCC)c2)c1 | ATCC 6258 | agar diffusion | MIC100 |  | 2966 µM
Clc1ccc(C(c2ccccc2)N2CCN(CCn3cncn3)CC2)cc1 |  | broth dilution | MFC |  | >256 µg/mL
CCCCCCCn1cc[n+](COCCCCOC[n+]2ccn(CCCCCCC)c2)c1 | ATCC 6258 | agar diffusion | MIC100 |  | 10 µM
CC(C)(O)c1cn(-c2cccc([N+](=O)[O-])c2)nn1 | URM 934 | broth dilution | inhibition | 2048 µg/mL | 0%

A second listing of 3 rows from above:

{"compound": "CC(C)(O)c1cn(-c2ccc3ccccc3c2)nn1", "strain or isolate": "URM 4263", "method": "broth dilution", "measure": "inhibition", "dose": "2048 µg/mL", "value": "0%"}
{"compound": "CCCCCCCCCCCn1cc[n+](COCCOC[n+]2ccn(CCCCCCCCCCC)c2)c1", "strain or isolate": "ATCC 6258", "method": "agar diffusion", "measure": "MIC100", "value": "2 µM"}
{"compound": "c1ccc(C(c2ccccc2)n2ccnc2)cc1", "method": "broth dilution", "measure": "MFC", "value": "2 µg/mL"}

An empty or dashed field is not shown. Inhibition is in % at the dose shown (toxicity tests: loss of growth or viability). A number after MIC or MFC names an inhibition level or a share of isolates.